## Share of PSTVd loop 6 variants by leaf site

PSTVd intermediate strain, loop 6: wild type UGACCGCGAG, pool pattern UNNNCGNNNG; upper and lower strand joined, each 5' to 3', the first 5 letters being the upper strand, closing pairs included.

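A pool of all variants was put on leaves of three Nicotiana benthamiana plants. Samples came from the inoculated region at 5 days, the leaf margin at 10 and upper systemic leaves at 12.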

Values are reads per thousand in the sample; higher means more abundant, 0 means not found. Each site shows the three plants. "Pool" is the share in the plasmid pool used as inoculum, on the same scale. The inoculated region was read from the minus strand, the other sites from the plus strand.

sequence	pool	inoculated region	leaf margin	systemic leaves
UGUUCGCUUG	0.314	0.209 / 0.144 / 0.0922	0 / 0 / 0	0 / 0 / 0
UGUUCGGAAG	0.144	0.0695 / 0.0180 / 0.0369	0 / 0 / 0	0 / 0 / 0
UGUUCGGACG	0.275	0.122 / 0.0898 / 0.0738	0.0276 / 0 / 0.0232	0 / 0.0202 / 0
UGUUCGGAGG	0.157	0.0348 / 0.0719 / 0.0553	0.0552 / 0 / 0	0 / 0 / 0
UGUUCGGAUG	0.261	0.139 / 0.108 / 0.0369	0.0552 / 0 / 0	0.0180 / 0.0202 / 0.0205
UGUUCGGCAG	0.261	0.834 / 0.790 / 0.535	0.0552 / 0 / 0.0232	0 / 0 / 0
UGUUCGGCCG	0.209	0.0695 / 0.0898 / 0.0369	0 / 0 / 0	0 / 0 / 0
UGUUCGGCGG	0.275	0.104 / 0.0719 / 0.148	0 / 0 / 0.0232	0 / 0 / 0
UGUUCGGCUG	0.340	0.904 / 0.629 / 0.350	0 / 0.101 / 0.139	0 / 0 / 0
UGUUCGGGAG	0.379	0.521 / 0.611 / 0.627	0.0276 / 0.0504 / 0.0464	0 / 0 / 0.0205
UGUUCGGGCG	0.196	0.0695 / 0.126 / 0.0553	0.0276 / 0 / 0	0 / 0 / 0
UGUUCGGGGG	0.209	0.0521 / 0.0719 / 0.0184	0 / 0 / 0.0232	0 / 0 / 0
UGUUCGGGUG	0.301	0.747 / 0.611 / 0.461	0.166 / 0.0757 / 0.0928	0 / 0 / 0
UGUUCGGUAG	0.183	0.104 / 0.0359 / 0.0922	0 / 0 / 0	0 / 0 / 0
UGUUCGGUCG	0.366	0.0174 / 0.0539 / 0.0553	0 / 0 / 0.0232	0 / 0 / 0
UGUUCGGUGG	0.301	0.156 / 0.0898 / 0.111	0.0276 / 0 / 0	0 / 0 / 0
UGUUCGGUUG	0.301	0.0695 / 0.0359 / 0.0369	0 / 0 / 0	0 / 0 / 0
UGUUCGUAAG	0.131	0.0869 / 0.0539 / 0.0738	0.0552 / 0 / 0	0 / 0 / 0
UGUUCGUACG	0.301	0.0869 / 0.108 / 0.111	0 / 0 / 0	0 / 0 / 0
UGUUCGUAGG	0.327	0.0521 / 0.108 / 0.0369	0.0276 / 0 / 0.0232	0 / 0 / 0
UGUUCGUAUG	0.392	0.104 / 0.0359 / 0.0553	0.331 / 0 / 0.0232	0 / 0 / 0
UGUUCGUCAG	0.458	0.0869 / 0.108 / 0.0738	0.0276 / 0 / 0	0 / 0 / 0.0410
UGUUCGUCCG	0.314	0.0521 / 0.0539 / 0.0553	0.0276 / 0 / 0	0 / 0 / 0
UGUUCGUCGG	0.431	0.156 / 0.0898 / 0.0738	0.0276 / 0 / 0	0 / 0 / 0
UGUUCGUCGU	0.0131	0 / 0 / 0	0 / 0 / 0	0 / 0 / 0
UGUUCGUCUG	0.484	0.0869 / 0.180 / 0.129	0 / 0 / 0	0 / 0 / 0
UGUUCGUGAG	0.301	0.209 / 0.0719 / 0.0553	0 / 0 / 0	0 / 0 / 0
UGUUCGUGCG	0.301	0.0521 / 0.0359 / 0.0369	0.0276 / 0 / 0	0 / 0 / 0
UGUUCGUGGG	0.131	0.122 / 0.0898 / 0.0369	0 / 0 / 0.0232	0 / 0 / 0
UGUUCGUGUG	0.445	0.122 / 0.0539 / 0.0922	0 / 0 / 0.0232	0 / 0 / 0
UGUUCGUUAG	0.445	0.122 / 0.108 / 0.111	0.0276 / 0 / 0	0 / 0 / 0
UGUUCGUUCG	0.288	0.104 / 0.0539 / 0.0184	0 / 0 / 0.0232	0 / 0 / 0
UGUUCGUUGG	0.301	0.139 / 0.0719 / 0.0369	0 / 0 / 0	0 / 0 / 0
UGUUCGUUUG	0.497	0.0869 / 0.0719 / 0.0738	0 / 0 / 0	0 / 0 / 0
UGUUCUACGG	0.0131	0 / 0 / 0	0 / 0 / 0	0 / 0 / 0
UUAACCGGAG	0.0131	0.643 / 4.17 / 6.14	1.16 / 1.16 / 0.835	0.108 / 0.727 / 0.451
UUAACGAAAG	0.222	0.591 / 0.719 / 0.645	0.0552 / 0.101 / 0.0928	0 / 0 / 0
UUAACGAACG	0.261	0.678 / 0.683 / 0.443	0.0828 / 0.0252 / 0.0696	0.0359 / 0.0404 / 0.0410
UUAACGAAGG	0.131	0.0695 / 0.144 / 0.0553	0 / 0 / 0.0232	0 / 0 / 0
UUAACGAAUG	0.431	0.139 / 0.180 / 0.0369	0 / 0 / 0.0696	0 / 0 / 0
UUAACGACAG	0.235	0.626 / 0.701 / 0.424	0.0828 / 0.0757 / 0.0232	0 / 0 / 0
UUAACGACCG	0.183	0.869 / 0.719 / 0.609	0.0828 / 0.126 / 0.0464	0.0539 / 0.0202 / 0.0615
UUAACGACGG	0.314	0.0521 / 0.108 / 0.0184	0 / 0 / 0	0 / 0 / 0
UUAACGACUG	0.418	0.0348 / 0.180 / 0.0922	0.0276 / 0 / 0	0 / 0 / 0
UUAACGAGAG	0.314	0.695 / 0.503 / 0.977	0.138 / 0.202 / 0.0464	0.0719 / 0.101 / 0.0615
UUAACGAGCG	0.196	0.695 / 0.467 / 0.609	0.110 / 0.0757 / 0.0232	0 / 0 / 0
UUAACGAGGG	0.170	0.0348 / 0.0898 / 0.0738	0 / 0 / 0	0 / 0 / 0
UUAACGAGUG	0.183	0.156 / 0.0359 / 0.111	0.0276 / 0 / 0	0 / 0 / 0
UUAACGAUAG	0.353	0.747 / 0.593 / 0.443	0.0828 / 0.0504 / 0.162	0 / 0 / 0
UUAACGAUCG	0.209	0.817 / 0.575 / 0.535	0.0276 / 0.0757 / 0.0928	0 / 0.0404 / 0.0205
UUAACGAUGG	0.314	0.0348 / 0.126 / 0.129	0.0276 / 0 / 0	0 / 0 / 0
UUAACGAUUG	0.497	0.0869 / 0.0898 / 0.184	0.0276 / 0 / 0.0464	0 / 0 / 0
UUAACGCAAG	0.0915	0.799 / 0.629 / 0.756	0 / 0.0757 / 0.139	0.0180 / 0.0808 / 0
UUAACGCACG	0.196	0.695 / 0.701 / 0.479	0.0276 / 0.151 / 0.116	0.0180 / 0.0202 / 0.0205
UUAACGCAGG	0.235	0.0869 / 0.0719 / 0.0922	0 / 0 / 0	0 / 0 / 0
UUAACGCAUG	0.0915	0.122 / 0.108 / 0.0922	0 / 0 / 0.0232	0 / 0.0808 / 0.0615
UUAACGCCAG	0.196	0.591 / 0.593 / 0.461	0.0552 / 0.101 / 0	0 / 0 / 0
UUAACGCCCG	0.314	0.504 / 0.593 / 0.572	0.0552 / 0.151 / 0.116	0 / 0 / 0
UUAACGCCGG	0.314	0.139 / 0.144 / 0.0738	0 / 0 / 0.0232	0 / 0 / 0
UUAACGCCUG	0.327	0.139 / 0.0539 / 0.0553	0 / 0 / 0	0 / 0 / 0
UUAACGCGAG	0.301	0.330 / 0.180 / 0.221	0.166 / 0.252 / 0.0696	0 / 0.0808 / 0.185
UUAACGCGCG	0.183	0.799 / 0.665 / 0.535	0.0276 / 0.126 / 0.0928	0 / 0 / 0
UUAACGCGGG	0.261	0.139 / 0.108 / 0.0553	0 / 0 / 0	0 / 0 / 0
UUAACGCGUG	0.288	0.104 / 0.0719 / 0.0738	0.0276 / 0 / 0	0 / 0 / 0
UUAACGCUAG	0.170	0.626 / 0.790 / 0.295	0.110 / 0.0757 / 0.0696	0 / 0 / 0
UUAACGCUCA	0.0131	0.643 / 0.485 / 0.424	0.138 / 0.101 / 0.0464	0 / 0 / 0
UUAACGCUCG	0.301	0.591 / 0.557 / 0.424	0.0552 / 0.177 / 0.0928	0.0180 / 0.0202 / 0.0205
UUAACGCUGG	0.222	0.191 / 0.0898 / 0.0369	0 / 0 / 0	0 / 0 / 0
UUAACGCUUG	0.235	0.174 / 0.126 / 0.111	0 / 0 / 0.0464	0 / 0 / 0
UUAACGGAAG	0.131	0.712 / 4.37 / 5.66	0.883 / 1.26 / 0.835	0.162 / 0.465 / 0.595

Extract of 5 entries:

UGUUCGGCCG (pool 0.209) gave inoculated region 0.0695 / 0.0898 / 0.0369; leaf margin 0 / 0 / 0; systemic leaves 0 / 0 / 0.
UGUUCGUCGU (pool 0.0131) gave inoculated region 0 / 0 / 0; leaf margin 0 / 0 / 0; systemic leaves 0 / 0 / 0.
UUAACGAACG (pool 0.261) gave inoculated region 0.678 / 0.683 / 0.443; leaf margin 0.0828 / 0.0252 / 0.0696; systemic leaves 0.0359 / 0.0404 / 0.0410.
UUAACGCGGG (pool 0.261) gave inoculated region 0.139 / 0.108 / 0.0553; leaf margin 0 / 0 / 0; systemic leaves 0 / 0 / 0.
UUAACGCUAG (pool 0.170) gave inoculated region 0.626 / 0.790 / 0.295; leaf margin 0.110 / 0.0757 / 0.0696; systemic leaves 0 / 0 / 0.

Sequences that differ at fixed positions probably stem from PCR or sequencing errors, and defective variants can be carried along by functional ones. Wild type was 20.7 per thousand in the pool and the most common sequence in every sample (inoculated region 195, 198, 203; leaf margin 629, 591, 734; systemic leaves 942, 870, 868). With 36,220-57,551 reads a sample, very low values are single reads.

Values reported by Wu et al. 2024 (doi:10.1371/journal.ppat.1012142).